Compound potency records, mixed from different reports. Data source: NIAID ChemDB in PubChem.

All rows: growth or infection tests; agent: Herpes simplex virus 1

Blank or dashed fields: not listed here. ECn is the concentration giving n% inhibition of infection, replication or growth. Lines come from different laboratories, so protocols vary.

SMILES,strain or isolate,read-out,method,cell line,result
CCCc1cn([C@@H]2O[C@H](CO)[C@@H](O)[C@@H]2O)c(=O)[nH]c1=O,VR-3,MIC,-,-,32 µg/mL
CC(=O)OCCOCN1C=CC(=O)N(COCCO)S1(=O)=O,B206 (TK-),EC50,-,E6SM,>400 µg/mL
O=c1[nH]c(=S)n([C@@H]2O[C@H](CO)[C@@H](O)[C@@H]2O)cc1CCO,KOS (TK+),EC50,cytopathic effect,RPMI8226,118.2 µM
CCOP(=O)(OCC)C1=NOC(n2ccc(NC(C)=O)nc2=O)C1,-,EC50,plaque count,VERO,>200 µM
COC(=O)[C@H](C)NP(=O)(OC[C@H]1O[C@@H](n2cc(/C=C/Br)c(=O)[nH]c2=O)C[C@@H]1O)Oc1ccc(Cl)cc1,KOS,EC50,cytopathic effect,E6SM,0.015 µM
Cn1cc(C(=O)NCc2ccc(Cl)cc2)c(=O)c2cc(CN3CCOCC3)ccc21,-,EC50,plaque count,VERO,3.5 µM
Nc1nc2c(ncn2CC[C@H](O)CO)c(=O)[nH]1,C42 (acyclovir-resistant),EC50,plaque count,VERO,180 µM
CC1=CC(=O)N(c2ccccc2)S(=O)(=O)N1COCCO,F,EC50,-,E6SM,>400 µg/mL
Nc1nc(=S)n([C@@H]2O[C@H](CO)[C@@H](O)[C@@H]2O)cc1/C=C/Br,A4-3 (TK-),EC50,cytopathic effect,RPMI8226,>258.7 µM
CC1(C)[C@@H](CCO)C[C@H]1n1cnc2c(N)nc(N)nc21,TK-/VMW 1837,EC50,cytopathic effect,E6SM,>400 µg/mL
CCc1cn([C@H]2C[C@H](O)[C@@H](CO)O2)c(=S)nc1N,A4-3 (TK-),EC50,cytopathic effect,RPMI8226,>288.6 µM
CC[C@@H](C(C)C)[C@H](O)[C@@H](O)[C@@H](C)[C@H]1CC[C@H]2[C@@H]3CC(=O)[C@@]4(O)C[C@@H](OC(C)=O)CC[C@]4(C)[C@H]3CC[C@]12C,F,EC50,plaque count,VERO,107.3 µM
O=[N+]([O-])c1cc(-c2ccccc2)n(COCCO)c1-c1ccccc1,-,EC50,plaque count,VERO,>46 µM
Nc1nc2c(ncn2COCCO)c(=O)[nH]1,15985 SC16-S1 (acyclovir-resistant),EC50,cytopathic effect,HFF,>50 µg/mL
CC[C@@H](C(C)C)[C@H](O)[C@@H](O)[C@@H](C)[C@H]1CC[C@H]2[C@@H]3CC(=O)[C@H]4C[C@@H](OC(C)=O)CC[C@]4(C)[C@H]3CC[C@]12C,B2006 (TK-),EC50,plaque count,VERO,>39.6 µM
C[C@@H](c1ccccc1)N(CC(=O)Nc1ccc(-c2csc(N)n2)cc1)C(=O)c1ccncc1,294,EC50,plaque count,BHK-21/C13,0.1 µM
CC1(CO)CCC(Cn2nnc3c(Cl)ncnc32)C1(C)C,KOS,EC50,cytopathic effect,E6SM,>200 µg/mL
O=c1[nH]c(=O)n([C@H]2C[C@H](O)[C@@H](CO)O2)cc1/C=C/Br,KOS,EC50,cytopathic effect,Primary rabbit kidney cells,0.007 µg/mL
Nc1ccn([C@@H]2C=C(CO)[C@@H](O)[C@H]2O)c(=O)n1,KOS,EC50,cytopathic effect,PRK,>400 µg/mL
CCOC(=O)c1c(Br)c(-c2ccccc2)n(COCCO)c1-c1ccccc1,-,EC50,plaque count,VERO,>64 µM
CC1(CO)CCC(Cc2nc3ncnc(N)c3[nH]2)C1(C)C,KOS,EC50,cytopathic effect,E6SM,>200 µg/mL
CC(=O)OCCOCn1c(-c2ccccc2)c(Br)c(Br)c1-c1ccccc1,-,EC50,plaque count,VERO,>23 µM
CC[C@@H](C(C)C)[C@@H](O)[C@H](O)[C@@H](C)[C@H]1CC[C@H]2[C@@H]3CC(=O)[C@@]4(O)C[C@@H](Br)CC[C@]4(C)[C@H]3CC[C@]12C,F,EC50,plaque count,VERO,17.7 µM
OC[C@H]1O[C@@H](c2cc(Cl)nc3cc(Cl)c(Cl)cc23)C(O)C1O,-,EC90,virus yield,HFF,31 µM
COCc1cn([C@@H]2O[C@H](CO)[C@@H](O)[C@@H]2O)c(=O)[nH]c1=O,VR-3,MIC,-,-,100 µg/mL
CC(=O)OCCOCN1C(C)=CC(N)=[N+](c2ccccc2)S1(=O)=O,McIntyre,EC50,-,E6SM,>400 µg/mL
COc1cc(OC)c(NC(=S)Nc2ccc(NC=O)cc2Cl)cc1Cl,E-377,EC50,ELISA,HFF,9.3 µg/mL
Nc1nc2c(ncn2COCCO)c(=O)[nH]1,K1R,EC50,cytopathic effect,VERO,330 µM
Nc1ncnc2c1ncn2[C@@H]1C[C@H](CO)[C@@H](O)[C@@H]1O,F-FIAU-C1,EC50,plaque count,VERO,34 µM
COC(=O)C(C)(C)NP(=O)(OC[C@H]1O[C@@H](n2cc(/C=C/Br)c(=O)[nH]c2=O)C[C@@H]1O)Oc1ccccc1,KOS TK- acyclovir-resistant,EC50,cytopathic effect,E6SM,>240 µM
CC[C@@H](C(C)C)[C@@H](O)[C@H](O)[C@@H](C)[C@H]1CC[C@H]2[C@@H]3CC(=O)[C@@]4(O)C[C@@H](OC(C)=O)CC[C@]4(C)[C@H]3CC[C@]12C,B2006 (TK-),EC50,plaque count,VERO,94.2 µM
Cc1ccn2c(C3OCCS3)cnc2c1,B2006 (TK-),EC50,-,E6SM,>1000 µM
COC(=O)[C@H](C)NP(=O)(OCC1C/C1=C/n1cnc2c(N)ncnc21)Oc1ccccc1,-,EC50,plaque count,VERO,>1 µM
CC[C@@H](C(C)C)[C@H](O)[C@@H](O)[C@@H](C)[C@H]1CC[C@H]2[C@@H]3CC(=O)[C@H]4C[C@H](O)[C@H](O)C[C@]4(C)[C@H]3CC[C@]12C,B2006 (TK-),EC50,plaque count,VERO,41.8 µM
Nc1nc2c(ncn2CC(CO)OCP(=O)(O)O)c(=O)[nH]1,S,EC50,plaque count,WI-38,0.2 µM
CCOP(=O)(OCC)C1=NOC(n2cc(C)c(=O)[nH]c2=O)C1,-,EC50,plaque count,VERO,>400 µM
Nc1nc2c(ncn2CCCCO)c(=O)[nH]1,C42,EC50,plaque count,BHK,16 µM
CCCc1cn([C@H]2C[C@H](O)[C@@H](CO)O2)c(=S)nc1N,KOS (TK+),EC50,cytopathic effect,RPMI8226,0.15 µM
Cc1ccn2c(C3OCCO3)cnc2c1,KOS,EC50,-,E6SM,>1000 µM
O=c1[nH]c(=S)n([C@@H]2O[C@H](CO)[C@@H](O)[C@@H]2O)cc1/C=C/c1ccccc1,A4-3 (TK-),EC50,cytopathic effect,RPMI8226,>258.7 µM
Cc1cn([C@@H]2O[C@H](CO)[C@@H](O)[C@@H]2O)c(=O)[nH]c1=O,KOS,EC50,plaque count,VERO,11.6 µM
O=c1ccn([C@@H]2O[C@H](CO)[C@@H](O)[C@@H]2F)c(=O)[nH]1,F-FAU-C2,EC50,plaque count,VERO,49 µM
Nc1ncnc2c1ncn2[C@@H]1C[C@H](CO)[C@@H](O)[C@@H]1O,VR-3,MIC,-,-,10 µg/mL
Cc1cccn2c(C3OCCO3)cnc12,B2006 (TK-),EC50,-,E6SM,>1000 µM
CC[C@@H](C(C)C)[C@H](O)[C@@H](O)[C@@H](C)[C@H]1CC[C@H]2[C@@H]3CC(=O)[C@@]4(O)C[C@@H](Br)CC[C@]4(C)[C@H]3CC[C@]12C,F,EC50,plaque count,VERO,18.7 µM
Cc1cn([C@@H]2O[C@H](CO)[C@@H](O)[C@@H]2F)c(=O)[nH]c1=O,F-FIAU-C1,EC50,plaque count,VERO,6.9 µM
Nc1ncnc2c1ncn2C1CC(COP(=O)(O)O)[C@@H](O)[C@H]1O,-,EC50,cytopathic effect,PRK,7 µg/mL
Nc1nc2c(ncn2CCC(CO)CO)c(=O)[nH]1,C1 (101) (TK-),EC50,plaque count,VERO,87 µg/mL
Nc1nc(=O)n([C@@H]2O[C@H](CO)[C@@H](O)[C@@H]2F)cc1I,F,EC50,plaque count,VERO,0.023 µM
CC1(C)[C@@H](CCO)C[C@H]1n1nnc2c(N)ncnc21,TK-/B2006,EC50,cytopathic effect,E6SM,70 µg/mL
Cc1cccn2c(C3SCCS3)cnc12,VMW 1837 (TK+/TK-),EC50,-,E6SM,>1000 µM
Nc1nc2c(ncn2COCCO)c(=O)[nH]1,E-377,EC50,plaque count,HFF,0.2 µg/mL
Cc1cn([C@@H]2O[C@H](CO)[C@@H](O)[C@@H]2O)c(=O)[nH]c1=O,MP,EC50,cytopathic effect,HELF,0.32 µg/mL
CC(=O)OCCOCn1c(-c2ccccc2)c(-c2ccccc2)c([N+](=O)[O-])c1-c1ccccc1,-,EC50,plaque count,VERO,>300 µM
CCOC(=O)C1=CN(COCCO)S(=O)(=O)NC1=O,McIntyre,EC50,-,E6SM,>400 µg/mL
Nc1nc2c(ncn2COC(CO)CO)c(=O)[nH]1,KOS,EC50,ELISA,BSC-1,3.5 µM
CCc1cn([C@@H]2O[C@H](CO)[C@@H](O)[C@@H]2O)c(=S)nc1N,A4-3 (TK-),EC50,cytopathic effect,RPMI8226,>264.9 µM
Cn1cc(C(=O)NCc2ccc(Cl)cc2)c(=O)c2cc(/C=C\CO)cc(F)c21,F,EC50,plaque count,VERO,2.5 µM
CC1(CO)CCC(Cn2nnc3c(N)ncnc32)C1(C)C,TK-/B2006,EC50,cytopathic effect,E6SM,>100 µg/mL
CCCc1cn([C@H]2C[C@H](O)[C@@H](CO)O2)c(=S)[nH]c1=O,A4-3 (TK-),EC50,cytopathic effect,RPMI8226,>277.6 µM
Nc1nc(=O)n(C2CC(O)C(CO)O2)cc1CCCl,KOS,EC50,cytopathic effect,PRK,0.6 µg/mL
Cc1cn([C@H]2C[C@H](O)[C@]3(CO)C[C@H]23)c(=O)[nH]c1=O,DM2.1 (TK+),EC50,plaque count,HFF,6.3 µg/mL
Nc1nc2c(ncn2COC(CO)CO)c(=O)[nH]1,97-1716,EC50,PCR,-,3.9 µM
CC1(C)[C@@H](CCO)C[C@H]1n1nnc2c(=O)[nH]cnc21,TK-/VMW 1837,EC50,cytopathic effect,E6SM,70 µg/mL
Nc1nc2c(ncn2COCCO)c(=O)[nH]1,KOS,EC50,cytopathic effect,PRK,0.06 µg/mL
Nc1nc(=S)n([C@@H]2O[C@H](CO)[C@@H](O)[C@@H]2O)cc1CO,KOS (TK+),EC50,cytopathic effect,RPMI8226,>253.5 µM
COC(=O)C(Cc1c[nH]c2ccccc12)NP(=O)(O)OCC1C/C1=C/n1cnc2c(N)ncnc21,-,EC50,ELISA,BSC-1,15 µM
Nc1nc2c(ncn2CCC(CO)CO)c(=O)[nH]1,K1R,EC50,cytopathic effect,VERO,>800 µM
CC1(C)[C@@H](CCO)C[C@H]1n1cnc2c(N)ncnc21,TK-/B2006,EC50,cytopathic effect,E6SM,70 µg/mL
CCc1cn([C@H]2C[C@H](O)[C@@H](CO)O2)c(=O)[nH]c1=O,WT-20,MIC,-,-,320 µg/mL
O=C1C=CN(COCCO)S(=O)(=O)N1COCCO,B206 (TK-),EC50,-,E6SM,>400 µg/mL
O=c1[nH]c(=O)n(C2CC(O)C(CO)O2)cc1CCCCl,F,EC50,cytopathic effect,PRK,0.26 µg/mL
O=C(O)P(=O)(O)O,F-AMAU-C2,EC50,plaque count,VERO,30 µM
Nc1ncnc2c1ncn2C1CC(CO)[C@@H](O)[C@H]1O,-,EC50,cytopathic effect,PRK,4 µg/mL

A second listing of 8 rows from above:

SMILES	strain or isolate	read-out	method	cell line	result
CC(=O)OCCOCn1c(-c2ccccc2)c(Br)c(Br)c1-c1ccccc1	-	EC50	plaque count	VERO	>23 µM
CCOP(=O)(OCC)C1=NOC(n2cc(C)c(=O)[nH]c2=O)C1	-	EC50	plaque count	VERO	>400 µM
Nc1nc2c(ncn2CC[C@H](O)CO)c(=O)[nH]1	C42 (acyclovir-resistant)	EC50	plaque count	VERO	180 µM
Nc1nc2c(ncn2COCCO)c(=O)[nH]1	KOS	EC50	cytopathic effect	PRK	0.06 µg/mL
Nc1ccn([C@@H]2C=C(CO)[C@@H](O)[C@H]2O)c(=O)n1	KOS	EC50	cytopathic effect	PRK	>400 µg/mL
Nc1ncnc2c1ncn2[C@@H]1C[C@H](CO)[C@@H](O)[C@@H]1O	VR-3	MIC	-	-	10 µg/mL
CCOP(=O)(OCC)C1=NOC(n2ccc(NC(C)=O)nc2=O)C1	-	EC50	plaque count	VERO	>200 µM
Cc1cccn2c(C3OCCO3)cnc12	B2006 (TK-)	EC50	-	E6SM	>1000 µM